Experiment: general procedure: Fmoc solid-phase peptide synthesis; Fmoc-Rink amide AM resin (100–200 mesh, loading capacity 0.62 mmol/g); DIC/HOBT (8 eq.) in DMF
Details: whole synthesis

Q: With “LLGDFFRKSKEKIGKEFKRIVQRIKDFLRNLVPRTES-OH” as the substance, how does the “purity (crude or final not stated)” value read?
A: 95.30%

From publication PMC12021911 (Frontiers in Microbiology, 2025)
